Data as given in article PMC8703412 (Pharmaceuticals, 2021).

Tests used:
[1] = test system: Mycobacterium tuberculosis strain 331/88 (i.e., H37Rv); assay: MIC micromethod in Šula's medium, drug-susceptible Mtb.; format: cell-based; conditions: SI = IC50 (HepG2)/MIC
[2] = test system: Mycobacterium kansasii 6509/96 (clinical isolate); assay: MIC micromethod in Šula's medium, M. kansasii; format: cell-based; conditions: SI = IC50 (HepG2)/MIC

SMILES | SI for Mtb. 331/88 [1] | SI for M. kansasii 6509/96 [2]
C/C(=N\NC(=O)c1ccncc1)C(=O)Oc1ccccc1 [3b, Phenyl (E)-2-(2-isonicotinoylhydrazineylidene)propanoate] | ≥4000 | ≥125
COc1ccc(OC(=O)/C(C)=N/NC(=O)c2ccncc2)cc1 [3d, 4-Methoxyphenyl (E)-2-(2-isonicotinoylhydrazineylidene)propanoate] | ≥4000 | ≥125
C/C(=N\NC(=O)c1ccncc1)C(=O)Oc1ccc(Cl)cc1 [3g, 4-Chlorophenyl (E)-2-(2-isonicotinoylhydrazineylidene)propanoate] | ≥8000 | ≥62.5
C/C(=N\NC(=O)c1ccncc1)C(=O)Oc1cccc2ccccc12 [3i, Naphthalen-1-yl (E)-2-(2-isonicotinoylhydrazineylidene)propanoate] | 3997 | 3997
CC(=O)Nc1ccc(OC(=O)C(C)=NNC(=O)c2ccncc2)cc1 [3p, 4-Acetamidophenyl 2-(2-isonicotinoylhydrazineylidene)propanoate] | ˃2000 | ≥62.5
C/C(=N\NC(=O)c1ccncc1)C(=O)OCCn1c([N+](=O)[O-])cnc1C [3q, 2-(2-Methyl-5-nitro-1H-imidazol-1-yl)ethyl (E)-2-(2 isonicotinoylhydrazineylidene)propanoate] | ≥2000 | ≥250
C/C(=N\NC(=O)c1ccncc1)C(=O)Sc1ccccc1 [3s, S-Phenyl (E)-2-(2-isonicotinoylhydrazineylidene)propanethioate] | 728 | ≥45.5
